The target of this data set is UL9 protein (origin-binding protein/helicase) (UniProt P10193). As to the kind of experiment: EMSA. To be noted: purified recombinant protein; label: 32P.

Chains of the proteins cited; added tags and fusions are not shown. Lines headed by an entry give the natural chain unless they say otherwise; changes in a name come on top.
UniProt P10193: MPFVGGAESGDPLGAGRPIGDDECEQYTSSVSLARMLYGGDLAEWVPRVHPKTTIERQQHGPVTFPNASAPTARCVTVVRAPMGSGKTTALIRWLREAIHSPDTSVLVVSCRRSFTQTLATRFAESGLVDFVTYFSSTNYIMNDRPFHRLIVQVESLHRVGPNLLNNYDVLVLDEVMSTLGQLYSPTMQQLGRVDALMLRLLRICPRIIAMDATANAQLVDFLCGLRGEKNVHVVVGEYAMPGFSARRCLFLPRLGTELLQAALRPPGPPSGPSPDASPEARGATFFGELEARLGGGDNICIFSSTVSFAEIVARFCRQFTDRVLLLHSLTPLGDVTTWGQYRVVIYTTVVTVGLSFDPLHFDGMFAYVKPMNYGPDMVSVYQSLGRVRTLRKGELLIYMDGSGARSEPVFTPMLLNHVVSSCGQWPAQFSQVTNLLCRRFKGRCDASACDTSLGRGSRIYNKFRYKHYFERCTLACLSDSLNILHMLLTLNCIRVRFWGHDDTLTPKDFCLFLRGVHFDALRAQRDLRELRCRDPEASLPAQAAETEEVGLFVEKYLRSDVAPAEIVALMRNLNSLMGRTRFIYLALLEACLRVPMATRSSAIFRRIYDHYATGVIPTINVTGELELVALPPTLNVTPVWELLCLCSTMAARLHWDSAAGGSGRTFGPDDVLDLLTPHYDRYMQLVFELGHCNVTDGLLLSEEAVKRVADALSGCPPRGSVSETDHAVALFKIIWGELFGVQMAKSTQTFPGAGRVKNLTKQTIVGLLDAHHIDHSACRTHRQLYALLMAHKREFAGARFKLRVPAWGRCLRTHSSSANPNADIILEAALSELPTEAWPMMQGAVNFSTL

Construct, isoform or probe ends are uncertain for at least one entry.

Experimental findings from patent US6096502, “Substrate for detecting UL9 helicase activity” (Lee; Sam S.-K.) are described below.

For “AGCGTTCGCACTTCGTCC (double strand) [fully duplex Box I]”, the Kd came to 0.3 nM.
